PubChem BioAssay AID624099 – ICCB-Longwood, 2012
Aim: 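Human genes that papillomavirus E2 requires to repress the HPV18 LCR promoter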 (primary screen). System: human C33A cervical carcinoma cells (HPV-negative) stably expressing BPV1 E2 and an HPV18 LCR luciferase reporter. Reagents: siRNA pool against human genes, 40 nM. Timing: 72 h. Read-out: 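HPV18 LCR reporter light per well, converted to plate-wise z-scores that exclude control wells, and averaged over triplicate plates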. Scale: mean z-score and z-score: higher = stronger reporter signal, weaker E2 silencing. Hit rule: 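Hit if mean z-score reaches 2 and two or more of three replicate z-scores also reach 2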.
Here is an unselected part of about 21,000 reagents. 497 of all reagents (2.4%) were called active. 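Higher z means weaker E2 silencing; only reporter increases were scored, and knock-downs that hurt cell survival may mask genuine repressor factors.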 Reagents against one gene are numbered here. Reagent sequences are not shown.

The opening 2 entries, to show the layout:
SOX9-AS1 | mean z-score: 3.27; z-score, replicate A: 3.44; z-score, replicate B: 3.24; z-score, replicate C: 3.12; activity call: active
HOMER1 | mean z-score: 0.32; z-score, replicate A: 0.24; z-score, replicate B: 0.51; z-score, replicate C: 0.21; activity call: inactive

The listing, repeating the preview:
SOX9-AS1 | mean z-score: 3.27; z-score, replicate A: 3.44; z-score, replicate B: 3.24; z-score, replicate C: 3.12; activity call: active
HOMER1 | mean z-score: 0.32; z-score, replicate A: 0.24; z-score, replicate B: 0.51; z-score, replicate C: 0.21; activity call: inactive
KRTAP21-1 | mean z-score: 0.9; z-score, replicate A: 1.34; z-score, replicate B: 0.6; z-score, replicate C: 0.75; activity call: inactive
PCDHB7 | mean z-score: 0.24; z-score, replicate A: 0.11; z-score, replicate B: 0.58; z-score, replicate C: 0.05; activity call: inactive
RTL4 | mean z-score: -0.35; z-score, replicate A: -0.4; z-score, replicate B: -0.37; z-score, replicate C: -0.27; activity call: inactive
SNAP23 | mean z-score: -0.51; z-score, replicate A: -0.7; z-score, replicate B: -0.38; z-score, replicate C: -0.44; activity call: inactive
CLECL1 | mean z-score: -0.82; z-score, replicate A: -0.64; z-score, replicate B: -0.7; z-score, replicate C: -1.14; activity call: inactive
TOGARAM2 | mean z-score: 2.73; z-score, replicate A: 2.63; z-score, replicate B: 2.66; z-score, replicate C: 2.88; activity call: active
SREBF1 | mean z-score: 0.71; z-score, replicate A: 0.66; z-score, replicate B: 1.07; z-score, replicate C: 0.4; activity call: inactive
ZNF559 | mean z-score: 0.44; z-score, replicate A: 0.49; z-score, replicate B: 0.33; z-score, replicate C: 0.52; activity call: inactive
SSPOP #1 | mean z-score: -1.26; z-score, replicate A: -1.25; z-score, replicate B: -1.54; z-score, replicate C: -1; activity call: inactive
SSPOP #2 | mean z-score: 0.97; z-score, replicate A: 1.1; z-score, replicate B: 0.67; z-score, replicate C: 1.14; activity call: inactive
SSPOP #3 | mean z-score: 0.42; z-score, replicate A: 0.19; z-score, replicate B: 1.03; z-score, replicate C: 0.02; activity call: inactive
